Measured values from several laboratories, pooled; numbers as filed in NIAID ChemDB.

All rows: whole-cell or culture tests; species: Mycobacterium tuberculosis

ECn: concentration that inhibits the pathogen or its effect by n%.

SMILES | dose | strain or isolate | method | setting | read-out | value
O=C(N/N=C(/CS(=O)(=O)c1ccccc1)c1ccc(Cl)cc1)c1ccc([N+](=O)[O-])o1 |  | RCMB 010126 |  |  | MIC | 15.63 µg/mL
CCOC(=O)C(CO)NC(=O)C1(NC(C)=O)CCCC1 |  | H37Rv | BACTEC |  | MIC bound | >12.8 µg/mL
COc1ccc(-c2ccc(O)cc2)c2c1C[C@H](O)C(C)(C)O2 |  | 90-221387 |  |  | MIC | >100 µg/mL
O=C(/C=C/C(=O)Nc1ccc(F)cc1F)Nc1ccc(F)cc1F | 6.25 µg/mL | H37Rv | resazurin |  | inhibition | -12%
CC(C)(C)C/C(O)=C/c1nc2ccccc2nc1/C=C(\O)CC(C)(C)C |  |  |  |  | EC50 | >6.25 µg/mL
CC(=O)c1cc([N+](=O)[O-])c(N2CC(C)CC(C)C2)s1 |  | H37Rv | resazurin |  | MIC | 100 µg/mL
CC1(C)CC(=O)c2c(oc3ccc(O)cc23)C1 |  | H37Rv | BACTEC |  | MIC bound | >12.5 µg/mL
C/C(=C\CC/C(C)=C/COC1CCCCO1)CO | 6.25 µg/mL | H37Rv | resazurin |  | inhibition | 4%
CC1CC(C)CN(c2sc([N+](=O)[O-])cc2[N+](=O)[O-])C1 |  | ss18b | resazurin |  | MIC | 6.25 µg/mL
Fc1ccc(CNCc2c[nH]c3ccccc23)c(F)c1 |  | H37Ra |  |  | MIC | 64 µg/mL
CCN(CC)C(=S)SSC(=S)N(CC)CC | 128 µg/mL | H37Rv | BACTEC |  | inhibition | 100%
CCCCCCCCNC(=O)c1cc2c(Cl)cc(Cl)cc2[nH]1 |  | H37Rv | resazurin / fluorescence |  | MIC | 375 µM
CO[C@H]1/C=C/O[C@@]2(C)Oc3c(C)c(O)c4c(O)c(c(/C=N/N5CCN(C)CC5)c(O)c4c3C2=O)NC(=O)/C(C)=C\C=C\[C@H](C)[C@H](O)[C@@H](C)[C@@H](O)[C@@H](C)[C@H](OC(C)=O)[C@@H]1C |  | ss18b | resazurin |  | MIC | 0.625 µg/mL
CS(=O)(=O)OCCN(CCOS(C)(=O)=O)c1ccc(C=Nc2ccc(-c3csc(Cc4ccccc4)n3)cc2)c(Cl)c1 |  | H37Rv | BACTEC |  | MIC bound | >12.5 µg/mL
COc1ccc(OC)c(-c2nsc(=O)o2)c1 |  | H37Rv | broth dilution |  | MIC99 | 32 µg/mL
C/C(=C\COC1CCCCO1)CC/C=C(\C)CSc1ccccc1 | 6.25 µg/mL | H37Rv | resazurin |  | inhibition | 20%
O=[N+]([O-])CC(C[N+](=O)[O-])c1c[nH]c2ccccc12 |  | H37Ra |  |  | MIC | 64 µg/mL
CC(=N\NC(=O)c1ccc([N+](=O)[O-])o1)/C(Cl)=N/Nc1ccccc1 |  | RCMB 010126 |  |  | MIC | 7.81 µg/mL
C[N+]1(C)CCCC1C(=O)[O-] | 12.5 µg/mL | H37Rv | BACTEC |  | inhibition | 9%
CC(=N\NC(=O)c1ccc([N+](=O)[O-])o1)/C(Cl)=N/Nc1ccc(S(=O)(=O)Nc2ncccn2)cc1 |  | RCMB 010126 |  |  | MIC | 15.63 µg/mL
CS(=O)(=O)C(c1nc2nnc(NC(=O)Nc3ccccc3)n2[nH]c1=O)c1nc2nnc(NC(=O)Nc3ccccc3)n2[nH]c1=O |  | H37Rv | BACTEC |  | MIC bound | >12.5 µg/mL
O=C(NCc1cccc([N+](=O)[O-])c1)c1nnc(-c2ccccn2)[nH]c1=O |  | H37Rv |  |  | MIC | >32 µg/mL
C[C@]1(COc2ccc(N3CCC(Oc4ccc(OC(F)(F)F)cc4)CC3)cc2)Cn2cc([N+](=O)[O-])nc2O1 |  | H37Rv | visual reading / absorbance |  | MIC100 | 0.007 µg/mL
CC(C)N=c1cc2n(-c3ccc(Cl)cc3)c3ccccc3nc-2cc1Nc1ccc(Cl)cc1 |  | H37Rv | broth dilution |  | MIC99 | 0.25 µg/mL
C[C@@H]1[C@@H](NC(=O)c2cc3c(F)cc(F)cc3[nH]2)C[C@H]2C[C@@H]1C2(C)C |  | V2475 | resazurin / fluorescence | multidrug-resistant | MIC | 0.0078 µM
C=C[C@@](C)(O)CC/C=C(/C)CCC=C(C)C | 6.25 µg/mL | H37Rv | resazurin |  | inhibition | 11%
COc1cc(-c2ccc(O)cc2)cc(O)c1C/C=C(\C)CO |  | 90-221387 |  |  | MIC | 25.4 µg/mL
O=C(/C=C/C=C/c1ccc2c(c1)OCO2)N1CCCCC1 |  | rif | PCR |  | MIC | >100 µg/mL
O=C(NCc1ccccc1Cl)c1nnc(-c2ccccn2)[nH]c1=O |  | H37Rv |  |  | MIC | >32 µg/mL
Fc1ccc(CNCCc2c[nH]c3ccccc23)cc1 |  | H37Ra |  |  | MIC | 32 µg/mL
Cc1cccc(CNC(=O)c2nnc(-c3ccccn3)[nH]c2=O)c1 |  | H37Rv |  |  | MIC | 16 µg/mL
O=C1OC(C(F)(F)F)=NC1Cc1ccccc1 | 12.5 µg/mL | H37Rv | BACTEC |  | inhibition | -9%
CC(C)=CCC/C(C)=C/CC/C(C)=C/CO |  | H37Rv | resazurin |  | MIC | 8 µg/mL
O=c1nc(-c2ccc3ccccc3c2)ss1 |  | H37Rv | broth dilution |  | MIC99 | 16 µg/mL
CO[C@H]1/C=C/O[C@@]2(C)Oc3c(C)c(O)c4c(O)c(c(/C=N/NCc5ccccc5)c(O)c4c3C2=O)NC(=O)/C(C)=C\C=C\[C@H](C)[C@H](O)[C@@H](C)[C@@H](O)[C@@H](C)[C@H](OC(C)=O)[C@@H]1C |  | H37Rv |  |  | MIC | 0.5 µg/mL
C[C@H]1COc2c(N3CCN(C)CC3)c(F)cc3c(=O)c(C(=O)O)cn1c23 |  | 1773-6 |  |  | MIC | 0.25 µg/mL
Cc1cc2nccc(-c3ccccc3CON)c2c(C)c1-c1ccc(CN2CCOCC2)cc1 |  |  | fluorescence |  | MIC90 | 20 µM
C#CCn1nc(-c2ccc(Cl)cc2)ccc1=O |  | H37Rv (ATCC 27294) | resazurin |  | EC50 | 24.73 µg/mL
O=C(NC1Cc2ccccc2C1)c1cc2c(F)cc(F)cc2[nH]1 |  | H37Rv | resazurin / fluorescence |  | MIC | 3.202 µM
O=C(NCc1ccc(C(F)(F)F)cc1)c1nnc(-c2ccccn2)[nH]c1=O |  | H37Rv |  |  | MIC | 16 µg/mL
CO[C@H]1/C=C/O[C@@]2(C)Oc3c(C)c(OC(C)=O)c4c(c3C2=O)C(=O)C=C(NC(=O)/C(C)=C\C=C\[C@H](C)[C@H](O)[C@@H](C)[C@@H](O)[C@@H](C)[C@H](OC(C)=O)[C@@H]1C)C4=O |  | H37Rv |  |  | MIC | 0.05 µg/mL
NCCc1c[nH]c2ccccc12 |  | H37Ra |  |  | MIC | 256 µg/mL
OCC(O)COCCCCCCCCCCCC1C=CCC1 | 12.5 µg/mL | H37Rv | BACTEC |  | inhibition | 99%
C=C/C(C)=C/C[C@H]1C(=C)CCC2[C@@](CCCCCCCCCCCCCCCCCCCC)(C(=O)O)CCC[C@@]21C |  | H37Ra |  |  | EC50 | 4.5 µg/mL
Cc1cc(O)c2c(c1)C(=O)C(c1c(C)cc3c(c1O)C(=O)C1OC1C3=O)=CC2=O |  | H37Rv | BACTEC |  | MIC bound | ≤12.5 µg/mL
O=c1nc(-c2ccccc2Cl)ss1 |  | H37Rv | broth dilution |  | MIC99 | 16 µg/mL
CC(=O)C(N=Nc1ccc(S(=O)(=O)NC2ONC(C)C2C)cc1)C(=O)Nc1cccc2ccccc12 |  | H37Rv | BACTEC |  | MIC bound | >12.5 µg/mL
Clc1cc(Cl)cc(CNCc2c[nH]c3ccccc23)c1 |  | H37Ra |  |  | MIC | 16 µg/mL
FC(F)(F)c1nc(-c2ccccc2)oc1Sc1nnc(Sc2oc(-c3ccccc3)nc2C(F)(F)F)s1 | 12.5 µg/mL | H37Rv | BACTEC |  | inhibition | 11%
CCOC(=O)c1cc(C(=O)c2ccccc2)n2ccc(-c3ccn4c(C(=O)c5ccc(OC)cc5)cc(C(=O)OC)c4c3)cc12 |  | H37Rv (ATCC 27294) | resazurin |  | EC90 | >100 µg/mL
O=C(NCc1cccc(F)c1)c1nnc(-c2ccccn2)[nH]c1=O |  | H37Rv |  |  | MIC | >32 µg/mL
O/C(=C\c1nc2ccccc2nc1/C=C(\O)c1ccc(Cl)cc1)c1ccc(Cl)cc1 | 6.25 µg/mL |  |  |  | inhibition | 9%
CCCC1C(C(=O)OCC)C(=O)NC1(C(=O)OCC)C(=O)OCC | 12.5 µg/mL | H37Rv | BACTEC |  | inhibition | 20%
Clc1cccc(CNCCc2c[nH]c3ccccc23)c1Cl |  | H37Ra |  |  | MIC | 32 µg/mL
COc1cc(C(=O)CO[C@H]2CC(C)=CC[C@@]3(C)CC[C@@](O)(C(C)C)[C@H]23)ccc1O |  |  | broth dilution |  | EC90 | 8 µg/mL
Cc1ccccc1CNC(=O)c1nnc(-c2ccccn2)[nH]c1=O |  | H37Rv |  |  | MIC | 8 µg/mL
C=C1CCC2C(C)(C)CCC[C@@]2(C)[C@@H]1CC/C(C)=C/CO | 6.25 µg/mL | H37Rv | resazurin |  | inhibition | 65%
CO[C@H]1/C=C/O[C@@]2(C)Oc3c(C)c(O)c4c(O)c(c(/C=N/NS(=O)(=O)c5ccc(C)cc5)c(O)c4c3C2=O)NC(=O)/C(C)=C\C=C\[C@H](C)[C@H](O)[C@@H](C)[C@@H](O)[C@@H](C)[C@H](OC(C)=O)[C@@H]1C |  | H37Rv |  |  | MIC | 1 µg/mL
N[C@@H]1CN(c2c(F)cc3c(=O)c(C(=O)O)cn([C@@H]4C[C@@H]4F)c3c2Cl)CC12CC2 |  |  |  |  | MIC | 0.125–0.5 µg/mL
CC1=CCC2(C)CCC(O)(C(C)C)C2C(OC(=O)c2ccccc2)C1 |  | H37Rv |  |  | MIC | 0.69 µg/mL
CCCCCCCCCCCCN1c2ccccc2Sc2ccccc21 |  | H37Ra | broth dilution |  | MIC | >64 µg/mL
O/C(=C\c1nc2ccccc2nc1/C=C(\O)c1ccccc1)c1ccccc1 | 6.25 µg/mL |  |  |  | inhibition | 0%
O=C(O)CCC(NC(=O)c1ccc(-n2nc3ccc(O)cc3nc2=O)cc1)C(=O)O | 12.5 µg/mL | H37Rv | BACTEC |  | inhibition | 23%
CO[C@H]1/C=C/O[C@@]2(C)Oc3c(C)c(O)c4c(O)c(c(/C=N/N5C(C)CN(Cc6ccccc6)CC5C)c(O)c4c3C2=O)NC(=O)/C(C)=C\C=C\[C@H](C)[C@H](O)[C@@H](C)[C@@H](O)[C@@H](C)[C@H](OC(C)=O)[C@@H]1C |  | H37Rv |  |  | MIC | 0.2 µg/mL
COc1cc(-c2ccccc2)cc(OC)c1O |  | 90-221387 |  |  | MIC | 52.3 µg/mL
O=C1OCCOCCOCCOCCOCCOC(=O)C1c1ccccc1 | 12.5 µg/mL | H37Rv | BACTEC |  | inhibition | -9%
C[C@H]1[C@H](C)CC[C@]2(C(=O)O)CC[C@]3(C)C(CC[C@@H]4[C@@]5(C)C[C@H](O)CC(C)(C)[C@@H]5CC[C@]43C)[C@H]12 |  | STR-R (ATCC 35820) | resazurin |  | MIC | 12.5 µg/mL
Cc1nc(-c2ccc(Cl)cc2)cn2c1nc1ccccc12 |  | H37Rv | BACTEC |  | MIC bound | >12.5 µg/mL
O=C(NCc1ccccc1C(F)(F)F)c1nnc(-c2ccccn2)[nH]c1=O |  | H37Rv |  |  | MIC | >32 µg/mL
C=C1CCCC(C)(C)[C@@H]1CC/C(C)=C/CC/C(C)=C/COC1CCCCO1 | 6.25 µg/mL | H37Rv | resazurin |  | inhibition | 32%
O=[N+]([O-])c1ccc(-c2nn3c(C45CC6CC(CC(C6)C4)C5)nnc3s2)c(Cl)c1 | 12.5 µg/mL | H37Rv | BACTEC |  | inhibition | 0%
CO[C@H]1/C=C/O[C@@]2(C)Oc3c(C)c(O)c4c(O)c(c(/C=N/N5CCCCCC5)c(O)c4c3C2=O)NC(=O)/C(C)=C\C=C\[C@H](C)[C@H](O)[C@@H](C)[C@@H](O)[C@@H](C)[C@H](OC(C)=O)[C@@H]1C |  | H37Rv |  |  | MIC | 0.02 µg/mL
O=CN(Cc1ccc(Cl)cc1)Cc1c[nH]c2ccccc12 |  | H37Ra |  |  | MIC | 32 µg/mL
C=C[C@](C)(O)CC[C@@H]1[C@@]2(C)CCCC(C)(C)[C@@H]2CC[C@@]1(C)O |  | H37Rv | resazurin |  | MIC | 6 µg/mL
CN(C)c1ccc(/C=N/NC(=O)c2ccncc2)cc1 | 6.25 µg/mL | H37Rv | resazurin |  | inhibition | 98%
CO[C@H]1/C=C/O[C@@]2(C)Oc3c(C)c(O)c4c(O)c(c(C=O)c(O)c4c3C2=O)NC(=O)/C(C)=C\C=C\[C@H](C)[C@H](O)[C@@H](C)[C@@H](O)[C@@H](C)[C@H](OC(C)=O)[C@@H]1C |  | H37Rv |  |  | MIC | 0.1 µg/mL
O=C1CSC(c2ccccn2)N1CCN1C(=O)CSC1c1ccccn1 |  | H37Rv | BACTEC |  | MIC bound | >12.5 µg/mL
Fc1cccc(Cl)c1CNCc1c[nH]c2ccccc12 |  | H37Ra |  |  | MIC | 64 µg/mL
COc1cc(O)c2c(=O)c3cc(O)ccc3oc2c1 |  | 90-221387 |  |  | MIC | 3.1 µg/mL

For reference, 6 entries again:

SMILES,dose,strain or isolate,method,setting,read-out,value
Fc1ccc(CNCc2c[nH]c3ccccc23)c(F)c1,,H37Ra,,,MIC,64 µg/mL
O=C(NCc1cccc(F)c1)c1nnc(-c2ccccn2)[nH]c1=O,,H37Rv,,,MIC,>32 µg/mL
CO[C@H]1/C=C/O[C@@]2(C)Oc3c(C)c(O)c4c(O)c(c(/C=N/NS(=O)(=O)c5ccc(C)cc5)c(O)c4c3C2=O)NC(=O)/C(C)=C\C=C\[C@H](C)[C@H](O)[C@@H](C)[C@@H](O)[C@@H](C)[C@H](OC(C)=O)[C@@H]1C,,H37Rv,,,MIC,1 µg/mL
Fc1cccc(Cl)c1CNCc1c[nH]c2ccccc12,,H37Ra,,,MIC,64 µg/mL
O=C1CSC(c2ccccn2)N1CCN1C(=O)CSC1c1ccccn1,,H37Rv,BACTEC,,MIC bound,>12.5 µg/mL
O=C(NCc1cccc([N+](=O)[O-])c1)c1nnc(-c2ccccn2)[nH]c1=O,,H37Rv,,,MIC,>32 µg/mL

Percent inhibition refers to the dose given; in toxicity tests it is the harm to the cells. MIC bound: limit read from a one-dose screen. A number after MIC or MFC names an inhibition level or a share of isolates. a–b is a range or a potency band. Lines come from different laboratories, so protocols vary. An empty or dashed field is not shown.